According to patent publication US20240109955A1 (published 2024):
Changes are numbered by the printed parent chain.

B1: MX834 (trispecific antibody)
chain 1: QTVVTQEPSFSVSPGGTVTLTCGLSSGSVSTAYFPSWYQQTPGQAPRTLIYGTNTRSSGVPDRFSGSILGNKAALTITGAQADDESDYYCVLYMGRGIVVFGGGTKLTVLGGSSGEIVLTQSPGTLSLSPGERATLSCRASQSVSSSYLAWYQQKPGQAPRLLIYSASSRATGIPDRFSGSGSGTDFTLTISRLEPEDFAVYFCQQYVGLTGWTFGQGTKVEIKGGGGSGGSGSGGGGSASGSGQMQLVQSGPEVKKPGTSVKVSCKASGFTFTSSAVQWVRQRQRLEWIGWIVVGSGNTNYAQKFQERVTITRDMSTSTAYMELSSLRSEDTAVYYCAAPNCSNVVCYDGFDIWGQGTMVTVSSGGSSGQVQLVESGGGVVQPGRSLRLSCAASGFTLSSYGMHWVRQAPGKGLEWVAVISYDGSNKYYVDSVKGRFTISRDNSKNTLYLQMNSLRAEDTAVYYCRWAYWELLPDYYYGMDVWGQGTTVTVSSASGGSGDKTHTCPPCPAPELLGGPSVFLFPPKPKDTLMISRTPEVTCVVVDVSHEDPEVKFNWYVDGVEVHNAKTKPREEQYNSYVVSVLTVLHQDWLNGKEYKCKVSNKALPAPIEKTISKAKGQPREPQVYTLPPCRDELTKNQVSLWCLVKGFYPSDIAVEWESNGQPENNYKTTPPVLDSDGSFFKKLTVDKSRWQQGNVFSCSVLHEALHSHYTQKSLSLSPG
chain 2: B1 chain 1
B2: MX835 (trispecific antibody)
chain 1: B1 chain 1 with V208G
chain 2: EIVLTQSPGTLSLSPGERATLSCRASQSVSSSYLAWYQQKPGQAPRLLIYSASSRATGIPDRFSGSGSGTDFTLTISRLEPEDFAVYFCQQYGGLTGWTFGQGTKVEIKGGSSGDIQMTQSPSSVSASVGDRVIITCRASQGISSWLAWYQQKPGKAPKVLIYDASSLQSGVPSRFSGSGYGTDFTLTISSLQPEDSATYYCQQAKSFPITFGQGTRLEIKGGGGSGGSGSGGGGSASGSGQVQLVESGGGVVQPGRSLRLSCAASGFTFSSYAFHWVRQAPGKGLEWVAVISYDGSNQYYADSVKGRFTISRDNSKNTLYLQMNSLRADDTAVYYCARDLAIAVAGTWHYYNGMDVWGQGTTVTVSSGGSSGQMQLVQSGPEVKKPGTSVKVSCKASGFTFTSSAVQWVRQRQRLEWIGWIVVGSGNTNYAQKFQERVTITRDMSTSTAYMELSSLRSEDTAVYYCAAPNCSNVVCYDGFDIWGQGTMVTVSSASGGSGDKTHTCPPCPAPELLGGPSVFLFPPKPKDTLMISRTPEVTCVVVDVSHEDPEVKFNWYVDGVEVHNAKTKPREEQYNSYVVSVLTVLHQDWLNGKEYKCKVSNKALPAPIEKTISKAKGQPREPQVCTLPPSRDELTKNQVSLSCAVKGFYPSDIAVEWESNGQPENNYKTTPPVLDSDGSFFLVSKLTVDKSRWQQGNVFSCSVLHEALHSHYTQKSLSLSPG
B3: MX837 (trispecific antibody)
chain 1: B1 chain 1
chain 2: DIQMTQSPSSVSASVGDRVIITCRASQGISSWLAWYQQKPGKAPKVLIYDASSLQSGVPSRFSGSGYGTDFTLTISSLQPEDSATYYCQQAKSFPITFGQGTRLEIKGGSSGEIVLTQSPGTLSLSPGERATLSCRASQSVSSSYLAWYQQKPGQAPRLLIYSASSRATGIPDRFSGSGSGTDFTLTISRLEPEDFAVYFCQQYVGLTGWTFGQGTKVEIKGGGGSGGSGSGGGGSASGSGQMQLVQSGPEVKKPGTSVKVSCKASGFTFTSSAVQWVRQRQRLEWIGWIVVGSGNTNYAQKFQERVTITRDMSTSTAYMELSSLRSEDTAVYYCAAPNCSNVVCYDGFDIWGQGTMVTVSSGGSSGQVQLVESGGGVVQPGRSLRLSCAASGFTFSSYAFHWVRQAPGKGLEWVAVISYDGSNQYYADSVKGRFTISRDNSKNTLYLQMNSLRADDTAVYYCARDLAIAVAGTWHYYNGMDVWGQGTTVTVSSASGGSGDKTHTCPPCPAPELLGGPSVFLFPPKPKDTLMISRTPEVTCVVVDVSHEDPEVKFNWYVDGVEVHNAKTKPREEQYNSYVVSVLTVLHQDWLNGKEYKCKVSNKALPAPIEKTISKAKGQPREPQVCTLPPSRDELTKNQVSLSCAVKGFYPSDIAVEWESNGQPENNYKTTPPVLDSDGSFFLVSKLTVDKSRWQQGNVFSCSVLHEALHSHYTQKSLSLSPG
B4: MX838 (trispecific antibody)
chain 1: B1 chain 1 with V208G
chain 2: B3 chain 2 with V205G
B5: MX828 (bispecific antibody)
chain: B1 chain 1 with C632S, W644T
B6: MX829 (bispecific antibody)
chain: DIQMTQSPSSVSASVGDRVIITCRASQGISSWLAWYQQKPGKAPKVLIYDASSLQSGVPSRFSGSGYGTDFTLTISSLQPEDSATYYCQQAKSFPITFGQGTRLEIKGGSSGEIVLTQSPGTLSLSPGERATLSCRASQSVSSSYLAWYQQKPGQAPRLLIYSASSRATGIPDRFSGSGSGTDFTLTISRLEPEDFAVYFCQQYVGLTGWTFGQGTKVEIKGGGGSGGSGSGGGGSASGSGQMQLVQSGPEVKKPGTSVKVSCKASGFTFTSSAVQWVRQRQRLEWIGWIVVGSGNTNYAQKFQERVTITRDMSTSTAYMELSSLRSEDTAVYYCAAPNCSNVVCYDGFDIWGQGTMVTVSSGGSSGQVQLVESGGGVVQPGRSLRLSCAASGFTFSSYAFHWVRQAPGKGLEWVAVISYDGSNQYYADSVKGRFTISRDNSKNTLYLQMNSLRADDTAVYYCARDLAIAVAGTWHYYNGMDVWGQGTTVTVSSASGGSGDKTHTCPPCPAPELLGGPSVFLFPPKPKDTLMISRTPEVTCVVVDVSHEDPEVKFNWYVDGVEVHNAKTKPREEQYNSYVVSVLTVLHQDWLNGKEYKCKVSNKALPAPIEKTISKAKGQPREPQVYTLPPSRDELTKNQVSLTCLVKGFYPSDIAVEWESNGQPENNYKTTPPVLDSDGSFFKKLTVDKSRWQQGNVFSCSVLHEALHSHYTQKSLSLSPG
B7: MX828 + 829 (other)
chain 1: B1 chain 1 with C632S, W644T
chain 2: B6 chain
B8: MX830 (bispecific antibody)
chain: B1 chain 1 with V208G, C632S, W644T
B9: MX831 (bispecific antibody)
chain: B6 chain with V205G

Target: SARS-CoV-2 Omicron BA.4.6 spike protein (R346T, F486V) (SARS-CoV-2, UniProt P0DTC2 14-1273)
Assay: cell-based or functional assay

Row | Binder | IC50, pseudovirus neutralization | IC80, pseudovirus neutralization
1 | B1 | 24 nM | 109 nM
2 | B2 | 19 nM | 92 nM
3 | B3 | 33 nM | 80 nM
4 | B4 | 23 nM | 104 nM
5 | B5 | 54 nM | 300 nM
6 | B6 | 4 nM | 13 nM
7 | B7 | 5 nM | 10 nM
8 | B8 | 138 nM | 514 nM
9 | B9 | 3 nM | 10 nM
